# System: DENV-2 NGC
# Test: Antiviral activity against DENV-2 NGC in Vero-B cells (viral RNA load by RT-qPCR)
# Format: cell-based, Dengue virus
# Settings: DENV-2 in Vero-B cells (Table 3); ratio CC50 / EC50
row,SMILES,SI
1,COc1cccc(NC(C(=O)c2c[nH]c3ccccc23)c2ccc3nccnc3c2)c1 (stereo not drawn) [CPD-037],16
2,COc1cncc(NC(C(=O)c2c[nH]c3ccc(F)cc23)c2ccc(OC)nc2)c1 (stereo not drawn) [CPD-241],1531
3,COc1cccc(NC(C(=O)c2cn(C)c3ccccc23)c2ccccc2)c1 (stereo not drawn) [CPD-049],>1642
4,COc1cc(NC(C(=O)c2c[nH]c3ccccc23)c2ccccc2)cc(C(F)(F)F)c1 (stereo not drawn) [CPD-014],354
5,COc1cccc(NC(C(=O)c2c[nH]c3ccccc23)c2cccnn2)c1 (stereo not drawn) [CPD-317],153
6,COc1cccc(NC(C(=O)c2cnn3ccccc23)c2ccccc2)c1 (stereo not drawn) [CPD-197],>42
7,COc1cccc(NC(C(=O)c2c[nH]c3ccccc23)c2cc(C)on2)c1 (stereo not drawn) [CPD-025],69
8,"COc1cc(NC(C(=O)c2c[nH]c3ccccc23)c2ccccc2)cc(OC)c1 (single isomer, unassigned) [CPD-326]",9127
9,COc1cc(NC(C(=O)c2c[nH]c3ccccc23)c2ccccc2)ccc1F (stereo not drawn) [CPD-356],113
10,COC(=O)c1ccc2c(C(=O)C(Nc3cccc(OC)c3)c3ccccc3)c[nH]c2c1 (stereo not drawn) [CPD-085],227
11,COc1cccc(NC(C(=O)c2c[nH]c3ccccc23)c2ccc(F)nc2)c1 (stereo not drawn) [CPD-214],469
12,COc1cc(NC(C(=O)c2c[nH]c3ccccc23)c2ccc(C#N)cc2)ccn1 (stereo not drawn) [CPD-061],34
13,CCOc1ccc(NC(C(=O)c2c[nH]c3ccccc23)c2ccccc2)cc1OC (stereo not drawn) [CPD-173],3693
14,COc1cc(O)cc(NC(C(=O)c2c[nH]c3ccccc23)c2ccccc2)c1 (stereo not drawn) [CPD-359],501
15,COc1cccc(NC(C(=O)c2c[nH]c3cc(CO)ccc23)c2ccccc2)c1 (stereo not drawn) [CPD-140],24
16,COc1cccc(NC(C(=O)c2c[nH]c3ccc(C)cc23)c2ccccc2)c1 (stereo not drawn) [CPD-130],749
17,CNC(=O)c1cccc(NC(C(=O)c2c[nH]c3ccccc23)c2ccccc2)c1 (stereo not drawn) [CPD-170],58
18,COc1cc(NC(C(=O)c2c[nH]c3cccc(CO)c23)c2ccccc2)cc(OC)c1 (stereo not drawn) [CPD-352],247
19,COc1cc(CO)cc(NC(C(=O)c2nn(C)c3ccccc23)c2ccccc2)c1 (stereo not drawn) [CPD-278],>455
20,COc1cc(OC)nc(NC(C(=O)c2c[nH]c3ccccc23)c2ccccc2)n1 (stereo not drawn) [CPD-347],6
21,CCOc1ccc(C(Nc2cccc(OC)c2)C(=O)c2c[nH]c3ccccc23)cn1 (stereo not drawn) [CPD-250],65
22,O=C(c1c[nH]c2ccccc12)C(Nc1cccnc1)c1ccccc1 (stereo not drawn) [CPD-016],11

row,SMILES,SI
1,"COc1cncc(NC(C(=O)c2c[nH]c3ccc(F)cc23)c2ccc(OC)nc2)c1 (single isomer, unassigned) [CPD-323]",166
2,COc1cc(CO)cc(NC(C(=O)c2cn(C)c3ccccc23)c2ccccc2)c1 (stereo not drawn) [CPD-307],>702
3,COc1cccc(NC(C(=O)c2c[nH]c3ccc(S(C)(=O)=O)cc23)c2ccccc2)c1 (stereo not drawn) [CPD-229],>48
4,COc1cccc(NC(C(=O)c2cn(S(=O)(=O)C3CCNCC3)c3ccccc23)c2ccccc2)c1 (stereo not drawn) [CPD-217],44
5,COc1cc(NC(C(=O)c2c[nH]c3cc(F)ccc23)c2ccccc2)cc(OCCO)c1 (stereo not drawn) [CPD-316],1180
6,COc1cccc(NC(C(=O)c2c[nH]c3c(F)cccc23)c2ccc(OC)nc2)c1 (stereo not drawn) [CPD-155],191
7,O=C(c1c[nH]c2ccccc12)C(Nc1cncc(OC(F)F)c1)c1ccccc1 (stereo not drawn) [CPD-269],28
8,CCOC(=O)Cn1cc(C(=O)C(Nc2cccc(OC)c2)c2ccccc2)c2ccccc21 (stereo not drawn) [CPD-113],>232
9,COc1cccc(NC(C(=O)c2nn(C)c3ccccc23)c2ccc(OC)nc2)c1 (stereo not drawn) [CPD-264],>244
10,COc1cccc(NC(C(=O)c2nn(C)c3cc(F)ccc23)c2ccccc2)c1 (stereo not drawn) [CPD-281],>612
11,COc1cccc(N2C(=O)CN(C)n3cc(c4ccccc43)C(=O)C2c2ccccc2)c1 (stereo not drawn) [CPD-115],5
12,COc1ccnc(NC(C(=O)c2c[nH]c3ccccc23)c2ccccc2)n1 (stereo not drawn) [CPD-089],>208
13,COc1cc(NC(C(=O)c2c[nH]c3ccccc23)c2ccccc2)cc(OCCN(C)C)c1 (stereo not drawn) [CPD-243],8
14,CS(=O)(=O)c1cccc(NC(C(=O)c2c[nH]c3ccccc23)c2ccccc2)c1 (stereo not drawn) [CPD-044],10
15,COc1cccc(NC(C(=O)c2c[nH]c3ccccc23)c2ccccc2)n1 (stereo not drawn) [CPD-277],54
16,COc1cccc(NC(C(=O)c2c[nH]c3ccccc23)c2cccc(-c3cncnc3)c2)c1 (stereo not drawn) [CPD-054],>54
17,O=C(c1c[nH]c2ccccc12)C(Nc1cc(F)cc(F)c1)c1ccccc1 (stereo not drawn) [CPD-011],14
18,COc1cccc(NC(C(=O)c2nn(C)c3c2CN(C)CC3)c2ccccc2)c1 (stereo not drawn) [CPD-223],>2
19,NS(=O)(=O)c1cccc(NC(C(=O)c2c[nH]c3ccccc23)c2ccccc2)c1 (stereo not drawn) [CPD-187],18
20,COc1cccc(NC(C(=O)c2c[nH]c3ccc(C#N)cc23)c2ccccc2)c1 (stereo not drawn) [CPD-126],241
21,NC(=O)c1cccc(NC(C(=O)c2c[nH]c3ccccc23)c2ccccc2)c1 (stereo not drawn) [CPD-065],7
22,COc1cccc(NC(C(=O)c2c[nH]c3ccc(F)cc23)c2ccc(OC)nc2)c1 (stereo not drawn) [CPD-154],778

row,SMILES,SI
1,COc1cc(CO)cc(NC(C(=O)c2c[nH]c3ccccc23)c2ccc(OC)nc2)c1 (stereo not drawn) [CPD-283],323
2,COc1cccc(NC(C(=O)c2c[nH]c3ccccc23)c2cccnc2OC)c1 (stereo not drawn) [CPD-215],90
3,"COc1cc(NC(C(=O)c2c[nH]c3ccccc23)c2ccccc2)cc(OC)c1 (single isomer, unassigned) [CPD-327]",33
4,COc1cccc(NC(C(=O)c2cn(CCO)c3cc(F)ccc23)c2ccccc2)c1 (stereo not drawn) [CPD-245],192
5,CCn1nccc1C(Nc1cccc(OC)c1)C(=O)c1c[nH]c2ccccc12 (stereo not drawn) [CPD-107],3
6,COc1cncc(NC(C(=O)c2nn(C)c3ccccc23)c2ccccc2)c1 (stereo not drawn) [CPD-259],26
7,COc1cccc(NC(C(=O)c2c[nH]c3ccccc23)c2cn3c(n2)COCC3)c1 (stereo not drawn) [CPD-080],>125
8,CNS(=O)(=O)c1cccc(NC(C(=O)c2c[nH]c3ccccc23)c2ccccc2)c1 (stereo not drawn) [CPD-052],14
9,COc1cccc(NC(C(=O)c2c[nH]c3nc(C)ccc23)c2ccccc2)c1 (stereo not drawn) [CPD-225],>357
10,CCOc1cncc(NC(C(=O)c2c[nH]c3ccccc23)c2ccccc2)c1 (stereo not drawn) [CPD-246],51
11,COc1cccc(NC(C(=O)c2c[nH]c3cc(Cl)ccc23)c2cn3ccccc3n2)c1 (stereo not drawn) [CPD-150],3956
12,CCc1cccc(NC(C(=O)c2c[nH]c3ccccc23)c2ccccc2)c1 (stereo not drawn) [CPD-046],26
13,COc1cncc(NC(C(=O)c2c[nH]c3cc(F)ccc23)c2ccccc2)c1 (stereo not drawn) [CPD-157],299
14,CCOc1cc(NC(C(=O)c2c[nH]c3ccccc23)c2ccccc2)cc(OC)c1 (stereo not drawn) [CPD-254],743
15,COc1cccc(NC(C(=O)c2c[nH]c3ccc(F)cc23)c2ccccc2)c1 (stereo not drawn) [CPD-119],372
16,COc1cc(NC(C(=O)c2c[nH]c3ccccc23)c2ccccc2)ccc1Cl (stereo not drawn) [CPD-004],57
17,COc1cccc(NC(C(=O)c2nn(C)c3ccc(C#N)cc23)c2ccccc2)c1 (stereo not drawn) [CPD-275],>13
18,O=C(c1c[nH]c2ccccc12)C(Nc1cccc(CO)c1)c1ccccc1 (stereo not drawn) [CPD-179],26
19,COc1cc(NC(C(=O)c2c[nH]c3c(CCO)cccc23)c2ccc(F)cc2)cc(OC)c1 (stereo not drawn) [CPD-371],389
20,COc1cncc(NC(C(=O)c2c[nH]c3ccccc23)c2cc3ccccn3n2)n1 (stereo not drawn) [CPD-290],>142
21,COc1cncc(NC(C(=O)c2c[nH]c3ccccc23)c2ccccc2)c1 (stereo not drawn) [CPD-067],546
22,COc1cc(CO)cc(NC(C(=O)c2c[nH]c3cc(F)ccc23)c2ccccc2)c1 (stereo not drawn) [CPD-285],1327

row,SMILES,SI
1,COc1cccc(NC(C(=O)c2c[nH]c3ccccc23)c2ccccn2)c1 (stereo not drawn) [CPD-301],1097
2,COc1cccc(NC(C(=O)c2c[nH]c3cc(F)ccc23)c2cnc(OC)cn2)c1 (stereo not drawn) [CPD-297],668
3,COc1cccc(NC(C(=O)c2c[nH]c3ccccc23)c2ncc[nH]2)c1 (stereo not drawn) [CPD-028],>1
4,COc1cccc(NC(C(=O)c2cn(S(=O)(=O)C3CCOC3)c3ccccc23)c2ccccc2)c1 (stereo not drawn) [CPD-208],>279
5,COc1cccc(NC(C(=O)c2c[nH]c3ccccc23)c2ccc(F)cc2)c1 (stereo not drawn) [CPD-149],554
6,COc1cc(NC(C(=O)c2c[nH]c3c(C)cccc23)c2ccccc2)cc(OC)c1 (stereo not drawn) [CPD-337],3237
7,COc1cc(NC(C(=O)c2c[nH]c3ccccc23)c2ccc(OC)nc2)cc(OC)c1 (stereo not drawn) [CPD-335],909
8,COc1cccc(NC(C(=O)c2c[nH]c3ccccc23)c2ccc(C)nc2)c1 (stereo not drawn) [CPD-226],1005
9,COc1cccc(NC(C(=O)c2nn(C)c3c2CNCC3)c2ccccc2)c1.Cl (stereo not drawn) [CPD-221],3
10,COc1cccc(NC(C(=O)c2c[nH]c3ccccc23)c2[nH]cnc2C)c1 (stereo not drawn) [CPD-125],>19
11,COc1cc(NC(C(=O)c2cn(CCCO)c3ccc(F)cc23)c2ccccc2)cc(OC)c1 (stereo not drawn) [CPD-156],665
12,COC(=O)c1ccc2[nH]cc(C(=O)C(Nc3cccc(OC)c3)c3ccccc3)c2c1 (stereo not drawn) [CPD-142],137
13,COc1cc(NC(C(=O)c2cn(CCO)c3ccccc23)c2ccccc2)cc(OC)c1 (stereo not drawn) [CPD-148],594
14,COc1ccc(OC)c(NC(C(=O)c2c[nH]c3ccccc23)c2ccccc2)c1 (stereo not drawn) [CPD-039],6
15,COc1cc(CO)cc(NC(C(=O)c2c[nH]c3ccccc23)c2ccccc2)c1 (stereo not drawn) [CPD-262],1099
16,COc1cccc(NC(C(=O)c2c[nH]c3ccccc23)c2cncnc2)c1 (stereo not drawn) [CPD-029],78
17,COc1ccc2[nH]cc(C(=O)C(Nc3ccnc(OC)c3)c3ccccc3)c2c1 (stereo not drawn) [CPD-078],9
18,COc1cccc(NC(C(=O)c2c[nH]c3c(OC)cccc23)c2ccccc2)c1 (stereo not drawn) [CPD-222],>1003
19,COc1ccnc(NC(C(=O)c2c[nH]c3ccccc23)c2ccccc2)c1 (stereo not drawn) [CPD-066],15
20,COc1cccc(NC(C(=O)c2c[nH]c3ncc(F)cc23)c2ccccc2)c1 (stereo not drawn) [CPD-227],>454
21,COc1cccc(NC(C(=O)c2c[nH]c3ccccc23)c2cc3n(n2)CCOC3)c1 (stereo not drawn) [CPD-311],30

# From patent US12012411B2, “Viral replication inhibitors” (Katholieke Universiteit Leuven, priority 2011, dated 2024)
